According to PubChem BioAssay AID1903 (Southern Research Specialized Biocontainment Screening …, 2009):
Where “and” joins values, the source holds several entries; their conditions need not be identical. Equal values may be shown once. The list shows a part of the results. Results with a measured potency or affinity are listed apart. Calls of active or inactive are those of the source. How the calls were made is not given here.

The chains behind the UniProt entries cited, without tags or fusion partners.
UniProt P03070, whole entry, looked up: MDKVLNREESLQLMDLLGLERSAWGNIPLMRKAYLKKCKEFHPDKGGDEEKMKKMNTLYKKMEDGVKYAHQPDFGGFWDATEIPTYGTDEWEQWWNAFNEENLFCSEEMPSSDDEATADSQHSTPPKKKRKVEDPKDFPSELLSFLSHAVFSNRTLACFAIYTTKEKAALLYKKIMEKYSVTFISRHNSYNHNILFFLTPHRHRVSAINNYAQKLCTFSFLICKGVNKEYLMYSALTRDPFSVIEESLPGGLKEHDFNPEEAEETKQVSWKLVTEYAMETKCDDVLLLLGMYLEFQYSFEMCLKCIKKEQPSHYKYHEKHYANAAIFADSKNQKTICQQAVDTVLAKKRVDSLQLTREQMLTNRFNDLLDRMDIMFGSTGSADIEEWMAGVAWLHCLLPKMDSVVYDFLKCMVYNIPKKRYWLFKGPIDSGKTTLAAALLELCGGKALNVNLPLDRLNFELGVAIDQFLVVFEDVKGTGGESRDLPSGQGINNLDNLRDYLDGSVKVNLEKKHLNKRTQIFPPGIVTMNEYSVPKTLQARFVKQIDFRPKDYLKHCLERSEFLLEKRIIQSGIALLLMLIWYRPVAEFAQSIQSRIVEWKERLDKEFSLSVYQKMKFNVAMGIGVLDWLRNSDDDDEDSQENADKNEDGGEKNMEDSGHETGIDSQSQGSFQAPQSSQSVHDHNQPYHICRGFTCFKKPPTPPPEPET

biological target: Large T antigen (Simian virus 40) (UniProt P03070); assay: TAg ATPase/helicase activity blockers – biochemical (AID 1903); settings: SV40 large T antigen ATPase/helicase inhibition assay; at 20 µM; stronger effect = higher value

SMILES | inhibition
Cc1ccc(C(=O)OC2CN3CCC2CC3)cc1 (configuration not stated) | inactive: 6.98%
CC1CCC(C(C)C)C(OP(=O)(Nc2ccccn2)c2ccccc2)C1 (configuration not stated) | inactive: 4.39%
Cc1nn(-c2ccccc2)c2c1P(=O)(N1CCOCC1)N(C)C(c1ccccc1)=N2 (configuration not stated) | inactive: 8.29%
O=C(/C=C/c1ccccc1)OC1CN2CCC1CC2 (configuration not stated) | inactive: 8.86%
CN(C)C1(CNC(=O)c2ccc(S(C)(=O)=O)cc2)CCCCC1 | inactive: -8.8%
O=P1(Nc2ncccn2)COc2ccccc2OC1 | inactive: 2.11%
O=P1(Nc2ccc(Br)cn2)COc2ccccc2OC1 | inactive: 20.6%
O=[As](O)(c1cccs1)c1cccs1 | inactive: 5.47%
Cc1ccc(OCC(=O)OC2CN3CCC2CC3)cc1 (configuration not stated) | inactive: 3.58%
Nc1cccc([As](=O)(O)c2ccccc2)c1 | inactive: 1.96%
CN(CCCl)Cc1cc(Cl)c(NC2=NCCN2)c(Cl)c1 | inactive: 32.9%
CCOP(=O)(Nc1ccc(C)cn1)OCC | inactive: 1.34%
CCOP(=O)(NC(=NC(C)c1ccccc1)NC(C)c1ccccc1)OCC (configuration not stated) | inactive: 12.5%
CCC1=CC2Cc3nc4ccc(Cl)cc4c(N)c3C(C1)C2 (configuration not stated) | inactive: 4.01%
O=P1(Nc2ccccn2)COc2ccccc2OC1 | inactive: 19.3%
CC(C)(C)C(=O)NC(Sc1ncccn1)C(Cl)(Cl)Cl (configuration not stated) | inactive: 21.1%
Clc1n[nH]nc1-c1nn[nH][15n]1 | inactive: 9.01%
COc1ccccc1CNC(=O)COC(=O)C(O)(c1ccccc1)c1ccccc1 | inactive: 5.94%
O=[As](O)(c1ccccc1Br)c1ccccc1Br | inactive: 3.61%
CC(C)/C=N\N=C(\N)N[N+](=O)[O-] | inactive: 3.33%
CS(=O)(=O)c1ccc(Cl)c(NC(=O)COC(=O)C(O)(c2ccccc2)c2ccccc2)c1 | inactive: 9.61%
COc1cc(C(=O)NCC2(N3CCOCC3)CCCCC2)cc(Cl)c1OC(C)C | inactive: 24.3%
O=[As](O)(O)c1cccnc1 | inactive: 7.88%
O=C(OC1CN2CCC1CC2)c1ccc(Cl)cc1 (configuration not stated) | inactive: 12.7%
O=[As](O)(c1cccc(O)c1)c1cccc(O)c1 | inactive: 15.3%
Cc1cccc(OCC(=O)OC2CN3CCC2CC3)c1 (configuration not stated) | inactive: -3.56%

SMILES | inhibition
CCCOP(=S)(Nc1nc(N)cc(=O)[nH]1)OCCC | inactive: 7.72%
Cc1ccc(NCCc2c([N+](=O)[O-])cc([N+](=O)[O-])cc2[N+](=O)[O-])cc1 | inactive: 10.4%
CCOP(=O)(Nc1cccc2ccccc12)OCC | inactive: 1.1%
COc1cc(C2NCCC3(OCCO3)C2(C)C)cc(OC)c1OC (configuration not stated) | inactive: 3.42%
O=P(Nc1nccs1)(c1ccccc1)c1nc2ccccc2s1 (configuration not stated) | inactive: 8.52%
O=P(Nc1nccs1)(Oc1ccccc1)Oc1ccccc1 | inactive: 10.7%
CCOP1(=S)c2c(C)nn(CCC#N)c2N=C(c2ccccc2F)N1C (configuration not stated) | inactive: 7.26%
O=C(O)COc1ccc([As](=O)(O)O)cc1[N+](=O)[O-] | inactive: 11.1%
Nc1ccccc1[As](=O)(O)c1ccccc1 | inactive: 1.96%
NC(=O)Nc1ccc([As](=O)(O)O)cc1 | inactive: 10.8%
CN(C(=O)Cc1ccc(Cl)c(Cl)c1)[C@H]1CC[C@@]2(CCCO2)C[C@@H]1N1CCCC1 | inactive: 29.2%
CN(C)C(=O)c1cc([N+](=O)[O-])cc2c1-c1c(cc([N+](=O)[O-])cc1[N+](=O)[O-])C2=O | inactive: 38.3%
O=[N+]([O-])c1ccc2c(c1)nnn2O | inactive: -0.26%
CCOP1(=S)c2c(C)nn(CCC#N)c2N=C(c2ccc(F)cc2)N1C (configuration not stated) | inactive: -1.26%
CN(C(=O)Cc1ccccc1)[C@@H]1CC[C@]2(CCCO2)C[C@H]1N1CCCC1 | inactive: 1.86%
N#CCCN(C(=O)COC(=O)C(O)(c1ccccc1)c1ccccc1)c1ccc(F)cc1 | inactive: 12.8%
O=[As](O)(c1ccc(O)cc1)c1ccccc1O | inactive: -1.12%
C[As](=O)(O)c1cccc(C(=O)O)c1 | inactive: 0.98%
Cc1ccc2nc3c(c(C)c2c1)CC(C(Cl)Cl)S3 (configuration not stated) | inactive: 14.9%
Cc1ccc(OP(=O)(Nc2ccc([N+](=O)[O-])cn2)Oc2ccc(C)cc2)cc1 | inactive: 13.8%
CC(C)c1ccc(OP(=O)(Nc2ccccn2)Oc2ccccc2F)cc1 (configuration not stated) | inactive: 4.77%
ClCCSc1nnc(-c2cccnc2)o1 | inactive: 3.93%
O=[N+]([O-])c1cc([N+](=O)[O-])c(-c2ccn[nH]2)s1 | inactive: 4.45%
CCN(CC)C(=S)SC(NC=O)C(Cl)(Cl)Cl (configuration not stated) | inactive: 6.47%
CC(C)NC(=O)NP(=O)(Oc1ccccc1)Oc1ccccc1 | inactive: 6.19%
Cc1cc(=O)[nH]c(N[N+](=O)[O-])n1 | inactive: 2.24%

SMILES | inhibition
O=C(OC1CN2CCC1CC2)C12CC3CC(CC(C3)C1)C2 (configuration not stated) | inactive: -1.47%
Cc1c2c(nc3ccccc13)SC(C(Cl)Cl)C2 (configuration not stated) | inactive: 11.4%
COc1cc(I)ccc1[As](=O)(O)O | inactive: 13.9%
COc1ccc2nc(NP(=O)(c3ccccc3)c3ccccc3)sc2c1 | inactive: 12.3%
COc1ccc(N/C(=N/P(=O)(N2CCOCC2)N2CCOCC2)N2CCOCC2)cc1 | inactive: 13%
COP1(=S)c2c(C)nn(CCC#N)c2N=C(c2ccc(F)cc2)N1C (configuration not stated) | inactive: -0.18%
O=C(Nc1ccncc1[N+](=O)[O-])c1ccc([N+](=O)[O-])cc1[N+](=O)[O-] | inactive: 3.95%
O=C(COc1ccccc1)OC1CN2CCC1CC2 (configuration not stated) | inactive: -4.33%
CCOC(=O)c1ccc(NC(=O)C(C)(CCl)SC)cc1 (configuration not stated) | inactive: 24.4%
O=C(OC1CN2CCC1CC2)c1cccc([N+](=O)[O-])c1 (configuration not stated) | inactive: 2.68%
CCC(C)N(CC(C)C)C(=S)SC(NC(C)=O)C(Cl)(Cl)Cl (configuration not stated) | inactive: 23.5%
CCOC(=O)Nc1ccc([As](=O)(O)O)c(O)c1 | inactive: 7.13%
Cc1cc(SC(NC(=O)c2ccccc2)C(Cl)(Cl)Cl)nc(C(C)C)n1 (configuration not stated) | inactive: 18.7%
CCOC(=O)Nc1cccc([As](=O)(O)O)c1 | inactive: 0.195%
O=[N+]([O-])c1ccc(Nc2ccc(Oc3ccc([N+](=O)[O-])cc3[N+](=O)[O-])cc2)c([N+](=O)[O-])c1 | inactive: 7.37%
Cc1cc(SC(NC=O)C(Cl)(Cl)Cl)ncn1 (configuration not stated) | inactive: 7.21%
O=P(Nc1ccccn1)(c1cccc2ccccc12)c1cccc2ccccc12 | inactive: 11.2%
O=C(Nc1cc([As](=O)(O)O)ccc1O)c1ccccc1 | inactive: 1.76%
O=[N+]([O-])c1ncn(CCn2ncnc2[N+](=O)[O-])n1 | inactive: 3.17%
O=[N+]([O-])c1cccc(NC2=NCC(CBr)S2)c1 (configuration not stated) | inactive: 24.1%
O=C(O)CNc1ccc([As](=O)(O)O)cc1 | inactive: 2.75%
COc1ccc(C2=NCC(CBr)S2)cc1 (configuration not stated) | inactive: 5%
CC(=O)N1C2C3N(C(C)=O)C1C1N(C(C)=O)C(C(N1C(C)=O)N3C(C)=O)N2C(C)=O | inactive: -5.94%
O=[N+]([O-])c1cccc2n[nH]nc12 | inactive: 8.11%
O=[N+]([O-])c1cc([N+](=O)[O-])c(CCNc2ccccc2)c([N+](=O)[O-])c1 | inactive: 16.3%
CCc1nc2c(n1)c1c(non1O)c1c2no[n+]1[O-] | inactive: 24.8%

SMILES | inhibition
Cc1ccc(NP(=O)(Oc2ccccc2)Oc2ccccc2)nc1 | inactive: 0.12%
Nc1ccc([As](=O)(O)c2ccc(N)cc2)cc1 | inactive: -15.7%
CCN(/C(=N/P(=O)(N1CCOCC1)N1CCOCC1)N1CCOCC1)c1ccc(OC)cc1 | inactive: 2.26%
CN(C)C(=O)OCCc1n(C)cc[n+]1C | inactive: 6.85%
CC(C)=N/N=C(\N)N[N+](=O)[O-] | inactive: -1.08%
CC1CCN(C(=O)Oc2c(Cl)cc(Cl)c3cccnc23)CC1 | inactive: -1.69%
NC(=O)c1cc([N+](=O)[O-])cc([N+](=O)[O-])c1N | inactive: 20.9%
Cc1ccc(N/C(=N/P(=O)(N2CCOCC2)N2CCOCC2)N2CCOCC2)cc1 | inactive: 9.98%
Cc1ccc(OP(=O)(Nc2nccs2)Oc2ccc(C)cc2)cc1 | inactive: 13.7%
Clc1ccc(Cl)c(NC2=NCC(CBr)S2)c1 (configuration not stated) | inactive: 28.8%
CN1CCCC(OC(=O)C(c2ccccc2)c2ccccc2)C1 (configuration not stated) | inactive: -0.05%
CC(C)CC(=O)NC(Sc1ccc(Cl)cc1)C(Cl)(Cl)Cl (configuration not stated) | inactive: 3.15%
Nc1cc(N)c2nonc2c1[N+](=O)[O-] | inactive: 23.6%
O=C(NC(Sc1ccncn1)C(Cl)(Cl)Cl)c1ccccc1 (configuration not stated) | inactive: 7.4%
Oc1ccccc1CNc1ccccn1 | inactive: 1.96%
O=C(O)c1ccccc1[As](=O)(O)O | inactive: 4.31%
CC(=O)Nc1ccc([As](=O)(O)O)cc1 | inactive: 14.6%
O=P(Nc1nc2ccc(Cl)cc2s1)(c1ccccc1)c1ccccc1 | inactive: 6.88%
Cc1ccc(NP(=O)(Oc2ccccc2F)Oc2ccccc2F)nc1 | inactive: 11%
CCOP(=O)(Nc1ccccc1)OCC | inactive: 10.4% and inactive: 8.85%
Cc1cc(SC(NC(=O)c2ccc(F)cc2)C(Cl)(Cl)Cl)ncn1 (configuration not stated) | inactive: 19.2%
O=[N+]([O-])c1cc([N+](=O)[O-])c(CCN2CCOCC2)c([N+](=O)[O-])c1 | inactive: 36.9%
CCN(N=Nc1nonc1N)c1nonc1N | inactive: 25.2%
Nc1cccc2ccc([As](=O)(O)O)cc12 | inactive: 10%
